Data as given in PubChem BioAssay AID624099 (ICCB-Longwood, 2012).
The whole screen tested about 21,000 reagents; shown is a random part of them. 497 of them (2.4%) were called active. 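Higher z means weaker E2 silencing; only reporter increases were scored, and knock-downs that hurt cell survival may mask genuine repressor factors.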 Reagent sequences are not shown.

Purpose: 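Knock-downs relieving repression by E2 of an HPV18 LCR luciferase reporter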 (primary screen)
System: human C33A cervical carcinoma cells (HPV-negative) stably expressing BPV1 E2 and an HPV18 LCR luciferase reporter
Reagent: siRNA pool against human genes, 40 nM
Duration: 72 h
Measured: 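HPV18 LCR reporter light per well, converted to plate-wise z-scores that exclude control wells, and averaged over triplicate plates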
Reading the numbers: mean z-score and z-score: higher = stronger reporter signal, weaker E2 silencing
Active means: 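Hit if mean z-score reaches 2 and two or more of three replicate z-scores also reach 2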

Against CLTA (clathrin light chain A), the values are mean z-score 0.38; z-score, replicate A = 0.52; z-score, replicate B = 0.49; z-score, replicate C = 0.14; inactive. Against LPXN (leupaxin) the deposit lists mean z-score -0.82; z-score, replicate A = -0.84; z-score, replicate B = -0.94; z-score, replicate C = -0.69; inactive. Against LINC00924 (long independently transcribed non-coding RNA 924), the values are mean z-score -0.74; z-score, replicate A = -1.05; z-score, replicate B = -1.25; z-score, replicate C = 0.08; inactive. With knock-down of FBXO11 (F-box protein 11), the record shows mean z-score -0.47; z-score, replicate A = -0.67; z-score, replicate B = -0.13; z-score, replicate C = -0.62; inactive.

Looked up above:
Under “outcome”, CLTA (clathrin light chain A) shows inactive
Entry of LINC00924 (long independently transcribed non-coding RNA 924) under “z-score, replicate C”: 0.08

The results go on.
Silencing of ZC3H14 (zinc finger CCCH-type containing 14) resulted in: mean z-score 1.06; z-score, replicate A = 1.35; z-score, replicate B = 0.87; z-score, replicate C = 0.96; inactive. After knock-down of LOC400638 (retired record), the record shows mean z-score -0.22; z-score, replicate A = -0.08; z-score, replicate B = -0.42; z-score, replicate C = -0.15; inactive. Knock-down of SMAD5 (SMAD family member 5) resulted in: mean z-score 0.39; z-score, replicate A = 0; z-score, replicate B = 0.47; z-score, replicate C = 0.69; inactive. Silencing of ZNF436-AS1 (ZNF436 antisense RNA 1) gave: mean z-score -0.49; z-score, replicate A = -1.32; z-score, replicate B = -0.22; z-score, replicate C = 0.09; inactive. With knock-down of VARS2 (valyl-tRNA synthetase 2, mitochondrial) the results were mean z-score -1.61; z-score, replicate A = -1.64; z-score, replicate B = -1.52; z-score, replicate C = -1.68; inactive. For SECISBP2L (SECIS binding protein 2 like) the deposit lists mean z-score -1.11; z-score, replicate A = -1.5; z-score, replicate B = -0.85; z-score, replicate C = -0.98; inactive.

For TSGA10IP (testis specific 10 interacting protein), the entry reads mean z-score -0.63; z-score, replicate A = -0.54; z-score, replicate B = -0.87; z-score, replicate C = -0.48; inactive. CTSK (cathepsin K) scored mean z-score -0.48; z-score, replicate A = -0.49; z-score, replicate B = -0.62; z-score, replicate C = -0.32; inactive. After knock-down of KIF27P2 (KIF27 pseudogene 2), the screen gave mean z-score 1.66; z-score, replicate A = 1.95; z-score, replicate B = 1.98; z-score, replicate C = 1.06; inactive. LOC402560 (retired record) gave mean z-score 0.14; z-score, replicate A = 0.49; z-score, replicate B = 0; z-score, replicate C = -0.08; inactive.
